Source: patent US20160024159A1, “Potent and selective inhibitors of Nav1.7” (published 2016)

Experiments:
Test in all cases: cell-based or functional assay
[1] = target: human Nav1.4 voltage-gated sodium channel (human), P35499
[2] = target: human Nav1.5 voltage-gated sodium channel (human), Q14524
[3] = target: human Nav1.7 voltage-gated sodium channel (human), Q15858
[4] = target: human Nav1.6 voltage-gated sodium channel (human), Q9UQD0
[5] = target: human voltage-gated sodium channel Nav1.3 (human), Q9NY46
[6] = target: human voltage-gated sodium channel Nav1.4 (human), P35499
[7] = target: human voltage-gated sodium channel Nav1.5 (human), Q14524
[8] = target: human voltage-gated sodium channel Nav1.7 (human), Q15858

Row | Binder | Nav1.4/Nav1.7 [1] | Nav1.5/Nav1.7 [2] | PX hNav1.7 Tonic IC50 [3] [nM] | PX hNav1.6 Tonic IC50 [4] [nM] | further results
1 | GYCQKWLWTCDEKRACCEGLRCKLWCRKEI (modifications not checked) [Pra-[Nle6; Glu11, 28]JzTx-V(1-29)] | 241 | > 6340 | 1.58 |  | PX hNav1.4 Tonic IC50 [1]: 381 nM; PX hNav1.5 Tonic IC50 [2]: > 10000 nM
2 | GYCQKWLWTCDSERACCEGLRCKLWCRKEI (modifications not checked) [Pra-[Nle6; Glu12, 28]JzTx-V(1-29)] | 470 | > 5790 | 1.73 |  | PX hNav1.4 Tonic IC50 [1]: 811 nM; PX hNav1.5 Tonic IC50 [2]: > 10000 nM
3 | YCQKWLWTCDGKRACCEGLECKLWCRKII (modifications not checked) [[Nle6; Pra11; Glu20]JzTx-V(1-29)] | 230 | 193 | 18.4 |  | PX hNav1.4 Tonic IC50 [1]: 4220 nM; PX hNav1.5 Tonic IC50 [2]: 3550 nM
4 | YCQKWLWTCDSKRGCCEGLECKLWCRKII (modifications not checked) [[Nle6; Pra14; Glu20]JzTx-V(1-29)] | 232 | 638 | 7.16 |  | PX hNav1.4 Tonic IC50 [1]: 1660 nM; PX hNav1.5 Tonic IC50 [2]: 4570 nM
5 | YCQKWLWTCDGKRACCEGLECKLWCRKYI (modifications not checked) [[Nle6; Pra11; Glu20; Tyr28]JzTx-V(1-29)] | 643 | 1910 | 1.28 |  | PX hNav1.4 Tonic IC50 [1]: 825 nM; PX hNav1.5 Tonic IC50 [2]: 2460 nM
6 | YCQKWLWTCDSKRGCCEGLECKLWCRKYI (modifications not checked) [[Nle6; Pra14; Glu20; Tyr28]JzTx-V(1-29)] | 402 | 2100 | 1.76 |  | PX hNav1.4 Tonic IC50 [1]: 707 nM; PX hNav1.5 Tonic IC50 [2]: 3690 nM
7 | YCQKWLWTCDSKRGCCEGLRCKLWCRKII (modifications not checked) [[Nle6, Pra14]JzTx-V(1-29)] | 17 | 2090 |  |  | 
8 | KAYCQKWLWTCDSKRKCCEGLRCKLWCRKEI (modifications not checked) [CyA-[Nle6, Lys(Atz(NPEG10))14, Glu28]JzTx-V(1-29) (SEQ ID NO:891)] |  |  |  |  | PX hNav1.4 Tonic IC50 [1]: 402 nM; PX hNav1.5 Tonic IC50 [2]: 3990 nM
9 | AYCQKWLWTCDSKRACCAGLRCKLWCRKEI (modifications not checked) [Homodimeric Conjugate No. 8] |  |  | 0.679 |  | PX hNav1.4 Tonic IC50 [1]: 52.6 nM; PX hNav1.5 Tonic IC50 [2]: 1530 nM
10 | KAYCQKWLWTCDSKRKCCEGLRCKLWCRKEI (modifications not checked) [Homodimeric Conjugate No. 9] |  |  | 1.32 |  | PX hNav1.4 Tonic IC50 [1]: 118 nM; PX hNav1.5 Tonic IC50 [2]: 1690 nM
11 | GYCQKWLWTCDSKRACCKGLRCKLWCRKEI (modifications not checked) [Pra-[Nle6;Lys17;Glu28]JzTx-V(1-29)] |  |  | 1.42 | 148 | 
12 | GYCQKWLWTCDSKRACCEGLKCKLWCRKEI (modifications not checked) [Pra-[Nle6;Lys20;Glu28]JzTx-V(1-29)] |  |  | 0.519 | 245 | 
13 | GYCQKWLWTCDSKRECCEGLRCKLWCRKEI (modifications not checked) [Pra-[Nle6;Glu14,28]JzTx-V(1-29)] |  |  | 0.975 | 2490 | 
14 | GYCQKWLWTCDSKRACCEGERCKLWCRKEI (modifications not checked) [Pra-[Nle6;Glu19,28]JzTx-V(1-29)] |  |  | > 1000 | > 10000 | 
15 | GYCQKWLWTCDSKRACCEGLRCELWCRKEI (modifications not checked) [Pra-[Nle6;Glu22,28]JzTx-V(1-29)] |  |  | 22.6 | > 10000 | 
16 | AYCQKWLWTCDSERACCGGLRCKLWCRKEI (modifications not checked) [CyA-[Nle6;Glu12,28;Pra17]JzTx-V(1-29)] |  |  | 0.87 | 1720 | 
17 | AYCQKWLWTCDSKRECCGGLRCKLWCRKEI (modifications not checked) [CyA-[Nle6;Glu14,28;Pra17]JzTx-V(1-29)] |  |  | 1.19 | 175 | 
18 | EGYCQKWLWTCDEKRACCEGLRCKLWCRKEI (modifications not checked) [Glu-Pra-[Nle6;Glu11,28]JzTx-V(1-29)] |  |  | 2.33 | 2870 | 
19 | EGCQKWLWTCDEKRACCEGLRCKLWCRKEI (modifications not checked) [Glu-[Pra1;Nle6;Glu11,28]JzTx-V(1-29)] |  |  | 1.46 | 2520 | 
20 | EGCQKWLWTCDSKRECCEGLRCKLWCRKEI (modifications not checked) [Glu-[Pra1;Nle6; Glu14,28]JzTx-V(1-29)] |  |  | 0.525 | 562 | 
21 | GECQKWLWTCDEKRACCEGLRCKLWCRKEI (modifications not checked) [Pra-[Glu1,11,28;Nle6]JzTx-V(1-29)] |  |  | 5.55 | 2190 | 
22 | EGECQKWLWTCDEKRACCEGLRCKLWCRKEI (modifications not checked) [Glu-Pra-[Glu1,11,28;Nle6]JzTx-V(1-29)] |  |  | 5.59 | 5660 | 

Row | Binder | Nav1.4/Nav1.7 [1] | Nav1.5/Nav1.7 [2] | PX hNav1.7 Tonic IC50 [3] [nM] | PX hNav1.6 Tonic IC50 [4] [nM] | further results
23 | GECQKWLWTCDSERACCEGLRCKLWCRKEI (modifications not checked) [Pra-[Glu1,12,28;Nle6]JzTx-V(1-29)] |  |  | 4.14 | 1380 | 
24 | GECQKWLWTCDSKRECCEGLRCKLWCRKEI (modifications not checked) [Pra-[Glu1,14,28;Nle6]JzTx-V(1-29)] |  |  | 1.36 | 2340 | 
25 | GYCQKWLWTCDEERACCEGLRCKLWCRKEI (modifications not checked) [Pra-[Nle6;Glu11,12,28]JzTx-V(1-29)] |  |  | 3.8 | 825 | 
26 | EGCQKWLWTCDEERACCEGLRCKLWCRKEI (modifications not checked) [Glu-[Pra1;Nle6;Glu11,12,28]JzTx-V(1-29)] |  |  | 6.66 | 2730 | 
27 | EGCQKWLWTCDEKRECCEGLRCKLWCRKEI (modifications not checked) [Glu-[Pra1;Nle6; Glu11,14,28]JzTx-V(1-29)] |  |  | 2.91 | > 10000 | 
28 | GYCQKWLWTCDSKRACCEGLACKLWCRKEI (modifications not checked) [Pra-[Nle6;Ala20;Glu28]JzTx-V(1-29)] |  |  | 905 | > 10000 | 
29 | YCQKWMWTCDSKRACCEGLRCKLWCRKIA (modifications not checked) [[Ala29]JzTx-V(1-29)] |  |  |  |  | IC50 (IonWorks Quattro) [5]: 450 nM; IC50 (IonWorks Quattro) [6]: 270 nM; IC50 (IonWorks Quattro) [7]: > 5000 nM; IC50 (IonWorks Quattro) [8]: 53 nM
30 | YCQKFMWTCDSKRACCEGLECKLWCRKYI (modifications not checked) [[pI-Phe5;Glu20;Tyr28]JzTx-V(1-29)] |  |  |  |  | IC50, IonWorks Quattro electrophysiology [5]: 1.3 µM; IC50, IonWorks Quattro electrophysiology [6]: 3.4 µM; Nav1.4/Nav1.7 (ratio of IC50) [6]: 30 fold; IC50, IonWorks Quattro electrophysiology [7]: > 5 µM; IC50, IonWorks Quattro electrophysiology [8]: 0.11 µM
31 | YCQKWMWACDSKRACCEGLECKLWCRKII (modifications not checked) [[Atz(NPEG10)8;Glu20]JzTx-V(1-29)] |  |  |  |  | IC50, IonWorks Quattro electrophysiology [5]: > 5 µM; IC50, IonWorks Quattro electrophysiology [6]: > 5 µM; Nav1.4/Nav1.7 (ratio of IC50) [6]: 1 fold; IC50, IonWorks Quattro electrophysiology [7]: 18.7 µM
32 | LVYCQKWLWTCDSKRKCCEGLRCKLWCRKEI (modifications not checked) [Leu-Nva-[Nle6; Lys14; Glu28]JzTx-V(1-29)] |  |  |  |  | PX hNav1.4 Tonic IC50 [6]: 456 nM; PX hNav1.5 Tonic IC50 [7]: 5030 nM; PX hNav1.7 Tonic IC50 [8]: 13.5 nM
33 | LVYCQKWLWTCDSKRACCKGLRCKLWCRKEI (modifications not checked) [Leu-Nva-[Nle6; Lys17; Glu28]JzTx-V(1-29)] |  |  |  |  | PX hNav1.4 Tonic IC50 [6]: 190 nM; PX hNav1.5 Tonic IC50 [7]: 3270 nM; PX hNav1.7 Tonic IC50 [8]: 29.6 nM
34 | AYCQKWLWTCDSKRKCCEGLRCKLWCRKEI (modifications not checked) [CyA-[Nle6; Lys14; Glu28]JzTx-V(1-29)] |  |  |  |  | PX hNav1.4 Tonic IC50 [6]: 545 nM; PX hNav1.5 Tonic IC50 [7]: 6990 nM; PX hNav1.7 Tonic IC50 [8]: 6.35 nM
35 | AYCQKWLWTCDSKRACCKGLRCKLWCRKEI (modifications not checked) [CyA-[Nle6; Lys17; Glu28]JzTx-V(1-29)] |  |  |  |  | PX hNav1.4 Tonic IC50 [6]: 327 nM; PX hNav1.5 Tonic IC50 [7]: 4670 nM; PX hNav1.7 Tonic IC50 [8]: 4.83 nM
36 | AYCQKWLWTCDSKRACCEGLKCKLWCRKIW (modifications not checked) [CyA-[Nle6; Lys20; Trp29]JzTx-V(1-29)] |  |  |  |  | PX hNav1.4 Tonic IC50 [6]: 1640 nM; PX hNav1.5 Tonic IC50 [7]: 9320 nM; PX hNav1.7 Tonic IC50 [8]: 131 nM
37 | GYCQKWFWTCDSKRACCEGLECKLWCRKIW (modifications not checked) [Pra-[Phe6; Glu20; Trp29]JzTx-V(1-29)] | 44 | 52 |  |  | 
38 | GYCQKWLWTCDSKRACCEGLECKLWCRKIW (modifications not checked) [Pra-[Leu6; Glu20; Trp29]JzTx-V(1-29)] | 2070 | 2330 |  |  | 
39 | GYCQKWVWTCDSKRACCEGLECKLWCRKIW (modifications not checked) [Pra-[Nva6; Glu20; Trp29]JzTx-V(1-29)] | 1180 | 6480 |  |  | 
40 | YCQKWLWTCDSKRKCCEGLECKLWCRKIW (modifications not checked) [[Nle6; Lys(Pra-NPEG11)14; Glu20; Trp29]JzTx-V(1-29)] | 5 | 12 |  |  | 
41 | YCQKWLWTCDSKRKCCEGLECKLWCRKIW (modifications not checked) [[Nle6; Lys(Pra-NPEG3)14; Glu20; Trp29]JzTx-V(1-29)] | 38 | 100 |  |  | 
42 | YCQKWLWTCDSKRACCKGLECKLWCRKIW (modifications not checked) [[Nle6; Lys(Pra-NPEG11)17; Glu20; Trp29]JzTx-V(1-29)] | 2 | 3 |  |  | 
43 | YCQKWLWTCDSKRACCKGLECKLWCRKIW (modifications not checked) [[Nle6; Lys(Pra-NPEG3)17; Glu20; Trp29]JzTx-V(1-29)] | 1 | 1 |  |  | 
